Compound potency records, mixed from different reports. Data source: NIAID ChemDB in PubChem.

All rows: growth or infection tests; agent: HIV-1; method: luciferase; read-out: EC50

Rows are shuffled and stem from different studies.

smiles	strain or isolate	cell line	conditions	changes	value
CC(C)OC(=O)[C@H](C)N[P@](=O)(CO[C@H](C)Cn1cnc2c(N)ncnc21)Oc1ccccc1	NL4-3	TZM-bl	-	-	0.003 µM
Cn1c2ccccc2c2c1cc(C#N)c(=O)n2-c1ccc([N+](=O)[O-])cc1	NRTI resistant	HeLa	-	RT-V75I F77L F116Y Q151M	0.0244 µM
CCCCCOC(=O)C[C@H](NP(=O)(CO[C@@H](CF)Cn1ccc2c(=O)[nH]c(N)nc21)N[C@@H](CC(=O)OCCCCC)C(=O)OCCCCC)C(=O)OCCCCC	BaL	PBMC	-	-	>4 µM
Cc1ccc(-n2c(C)nnc2SCC(=O)Nc2cccc(C)c2C)cc1	NL4-3	HeLa + HeLa-JC53	-	RT-K103N Y181C	>10 µM
Cc1cn([C@H]2C[C@H](N=[N+]=[N-])[C@@H](CO)O2)c(=O)[nH]c1=O	UG070	TZM-bl	-	-	0.01 µM
N#Cc1cn(C[C@@H](CF)OCP(=O)(O)O)c2nc(N)[nH]c(=O)c12	NL4-3	PBMC	-	-	>100 µM
CSCc1nnc(SCC(=O)Nc2ccc(C)cc2Br)n1-c1ccc(C)cc1	NL4-3	HeLa + HeLa-JC53	-	RT-K103N Y181C	>10 µM
CCCCCOC(=O)C[C@H](NP(=O)(CO[C@@H](CF)Cn1ccc2c(=O)[nH]c(N)nc21)Oc1ccccc1)C(=O)OCCCCC	BaL	PBMC	-	-	>20 µM
Cc1ccc(-n2cnnc2SCC(=O)Nc2ccc(C)cc2Br)cc1	NL4-3	HeLa + HeLa-JC53	-	RT-K103N Y181C	>10 µM
Nc1nc2c(c(F)cn2C[C@@H](CF)OCP(=O)(O)O)c(=O)[nH]1	NL4-3	TZM-bl	-	-	>100 µM
Cc1ccc(NC(=O)CSc2nnc(C)n2-c2cccc3ccccc23)c(Cl)c1	NL4-3	HeLa + HeLa-JC53	-	RT-K103N Y181C	0.054 µM
Cc1cc(C#N)cc(C)c1Oc1nc(Nc2ccc(C#N)cc2)nc(N)c1Br	Clinical isolate	HEK293T	clinical isolate	-	0.00226 µM
CC(=O)N1CCC(C(=O)N(CCCN2CCC(Cc3ccc(C(N)=O)cc3)CC2)c2ccc(C)c(Cl)c2)CC1	R5 subtype B_10 recombinant	U87 (CD4+ CCR5+) + U87	-	-	0.034 µM
O=c1[nH]cnc2c1ncn2[C@H]1CC[C@@H](CO)O1	Recombinant	HeLa	-	RT-M41L V118I M184V	4.48 µM
CCc1ccc(-n2c(C)nnc2SCC(=O)Nc2ccccc2Br)c2ccccc12	NL4-3	HeLa + HeLa-JC53	-	RT-K103N Y181C	0.022 µM

For reference, 2 entries again:

smiles,strain or isolate,cell line,conditions,changes,value
CCCCCOC(=O)C[C@H](NP(=O)(CO[C@@H](CF)Cn1ccc2c(=O)[nH]c(N)nc21)Oc1ccccc1)C(=O)OCCCCC,BaL,PBMC,-,-,>20 µM
CSCc1nnc(SCC(=O)Nc2ccc(C)cc2Br)n1-c1ccc(C)cc1,NL4-3,HeLa + HeLa-JC53,-,RT-K103N Y181C,>10 µM

ECn: concentration that inhibits the pathogen or its effect by n%. Blank or dashed fields: not listed here.